Pooled drug test results. Numbers come from NIAID ChemDB, via PubChem.

Common to all: whole-cell or culture tests; organism: HIV-1; cells: PBL; measure: EC50

An empty or dashed field is not shown. Conditions beyond the fields shown may differ between rows. ECn: concentration that inhibits the pathogen or its effect by n%.

structure | strain or isolate | changes | method | setting | result
CCN(CC)C(=O)OCC1CN(C(=O)c2cc(OC)c(OC)c(OC)c2)CCN1C(=O)c1cc(OC)c(OC)c(OC)c1 | BaL |  | RT activity |  | 5 µM
Cc1cn([C@H]2C[C@H](N=[N+]=[N-])[C@@H](CO)O2)c(=O)[nH]c1=O | IIIB |  | RT activity |  | 0.09 µM
CC(C)C[C@H](NC(=O)[C@H](Cc1ccccc1)NC(=O)CNC(=O)CNC(=O)[C@@H](N)Cc1ccc(O)cc1)C(=O)N[C@@H]1[C@@H](O)[C@H](O)[C@@H](CO)O[C@H]1O |  |  | syncytia / RT activity |  | >140 µM
COc1ccc2c(c1)N(C(=O)OC(C)C)[C@@H](CSC)C(=S)N2 | D148/89 (AZT-resistant RT M41L D67N K70R T215Y) | RT-M41L D67N K70R T215Y | p24 |  | <0.01 µM
Cc1c(N)nc([C@H](CC(N)=O)NC[C@H](N)C(N)=O)nc1C(=O)N[C@H](C(=O)N[C@H](C)[C@@H](O)[C@H](C)C(=O)N[C@H](C(=O)NCCc1nc(-c2nc(C(=O)NCCC[S+](C)C)cs2)cs1)[C@@H](C)O)C(O[C@@H]1O[C@@H](CO)[C@@H](O)[C@H](O)[C@@H]1O[C@H]1O[C@H](CO)[C@@H](O)[C@H](OC(N)=O)[C@@H]1O)c1cnc[nH]1 | BaL |  | p24 |  | 300 µM
[NH4+] | IIIB |  | p24 |  | >100 µg/mL
COC(=O)[C@H](Cc1ccccc1)NP(=O)(O)OC[C@H]1O[C@@H](n2cnc3cnccc32)[C@H](O)[C@@H]1O | A012 PRE-AZT |  | p24 |  | 0.0093 µM
CCc1cc(NCc2nc3c(Cl)ccc(Cl)c3o2)c(=O)[nH]c1C | IIIB |  | p24 |  | <0.05 µM
CC(C)=CCOc1cc(NC(=S)c2ccoc2C)ccc1Cl | IIIB |  | syncytia |  | 0.001 µg/mL
CC(C)CN(C[C@@H](O)[C@H](Cc1ccccc1)NC(=O)[C@H](CC(N)=O)NC(=O)c1ccc2ccccc2n1)C(=O)NC(C)(C)C | LAI |  | RT activity |  | 0.15 µM
Cc1cn([C@H]2C[C@H](N=[N+]=[N-])[C@@H](COP(=O)(O)OC[C@H]3OC(O)[C@@H](O)[C@@H](O)[C@@H]3O)O2)c(=O)[nH]c1=O | LAV-Bru |  | RT activity | 7 d | <1 µM
C#Cc1c(C(N)=O)ncn1[C@@H]1O[C@H](CO)[C@@H](O)[C@H]1O | IIIB |  | p24 |  | >0.5 µM
Nc1ccn([C@H]2CC[C@@H](CO)O2)c(=O)n1 | Clinical isolate |  | p24 | clinical isolate | 0.01 µM
CC(C)C[C@H](NC(=O)[C@H](Cc1ccccc1)NC(=O)CNC(=O)CNC(=O)[C@@H](N)Cc1ccc(O)cc1)C(=O)O[C@@H]1O[C@H](CO)[C@@H](O)[C@H](O)[C@H]1O |  |  | syncytia / RT activity |  | >100 µM
CC(=O)N(O)CCCCCNC(=O)CCC(=O)N(O)CCCCCNC(=O)CCC(=O)N(O)CCCCCN | BaL |  | p24 |  | <10 µM
Cc1occc1C(=S)Nc1ccc(Cl)c(/C=N/OC(C)(C)C)c1 | IIIB |  | cytopathic effect |  | 0.021 µg/mL
O=C(O)P(=O)(O)O | IIIB |  | RT activity | 14 d | <256 µM
Cc1c(N)nc([C@H](CC(N)=O)NC[C@H](N)C(N)=O)nc1C(=O)N[C@H](C(=O)N[C@H](C)[C@@H](O)[C@H](C)C(=O)N[C@H](C(=O)NCCc1nc(-c2nc(C(=O)NCCC[S+](C)C)cs2)cs1)[C@@H](C)O)C(O[C@@H]1O[C@@H](CO)[C@@H](O)[C@H](O)[C@@H]1O[C@H]1O[C@H](CO)[C@@H](O)[C@H](OC(N)=O)[C@@H]1O)c1cnc[nH]1 | BaL |  | p24 |  | 0.64 µM
CCCCCCCCCCCCCCCCOP(=O)(OC[C@H]1OC(O)[C@H](O)[C@@H](O)[C@@H]1O)OC[C@H]1O[C@@H](n2cc(C)c(=O)[nH]c2=O)C[C@@H]1N=[N+]=[N-] | LAV-Bru |  | RT activity | 7 d | <1 µM
COCCNC(=O)[C@@H](NC(=O)[C@H](Cc1ccc(OC)c(OC)c1OC)C[C@H](O)[C@H](Cc1ccccc1)NC(=O)OC(C)(C)C)C(C)C | LAI |  | RT activity |  | 0.0177 µM
CC(C)C[C@H](NC(=O)[C@H](Cc1ccccc1)NC(=O)CNC(=O)CNC(=O)[C@@H](N)Cc1ccc(O)cc1)C(=O)OC[C@@H](O)[C@@H](O)[C@H](O)[C@@H](O)C=O |  |  | syncytia / RT activity |  | >100 µM
Nc1ncnc2c1ncn2CCOCP(=O)(O)O | IIIB |  |  |  | 3.7 µM
COC(=O)[C@H](C)NP(=O)(OC[C@@H]1C=C[C@H](n2cnc3c(N)ncnc32)O1)Oc1ccccc1 | IIIB |  | p24 |  | 0.008 µM
Nc1ccn([C@H]2CC[C@@H](CO)O2)c(=O)n1 | RF |  | p24 |  | 0.009 µM
CC(C)Nc1cccnc1N1CCN(C(=O)c2cc3cc(NS(C)(=O)=O)ccc3[nH]2)CC1 | Clinical isolate |  | p24 | clinical isolate | 0.04 µM
CCOCn1c(Sc2cc(C)cc(C)c2)c(CC)c(=O)[nH]c1=O | IIIB |  | cytopathic effect / MTT / p24 |  | 0.0018 µM
Cc1cn([C@H]2C[C@H](N=[N+]=[N-])[C@@H](CO)O2)c(=O)[nH]c1=O | IIIB |  | p24 |  | 0.0374 µM
C1CNCCNCCCN(CCCN2CCCNCCNCCCNCC2)CCNC1 | IIIB |  | p24 / ELISA |  | 1.86 µM
Cc1cn([C@@H]2O[C@H](CO)C3(OS(=O)(=O)C=C3N)[C@H]2O)c(=O)[nH]c1=O | IIIB |  | p24 |  | >30 µM
CC(C)(C)OC(=O)N[C@@H](Cc1ccccc1)[C@@H](O)C[C@@H](Cc1ccc(OCCN2CCOCC2)cc1)C(=O)N[C@H]1c2ccccc2C[C@H]1O | IIIB |  | antigen |  | <0.00078 µM
CC(C)n1nc(-c2ccc3oc(N)nc3c2)c2c(N)ncnc21 | HXB2 |  | p24 / ELISA |  | 0.038 µM
CCOCn1c(Sc2cc(C)cc(C)c2)c(CC)c(=O)[nH]c1=S | IIIB |  | cytopathic effect / MTT / p24 |  | 0.0022 µM
Nc1ncnc2c1ncn2[C@H]1C=C[C@@H](CO)O1 | IIIB |  | p24 |  | 2.3 µM
CCNc1cccnc1N1CCN(C(=O)c2cc3cc(OC)ccc3[nH]2)CC1 | D34 | TIBO-resistant | syncytia |  | >100 µM
Nc1ncnc2c1ncn2CCOCP(=O)(O)O | IIIB |  | p24 / syncytia |  | 2.5 µM
Cc1cn([C@@H]2O[C@H](CO[Si](C)(C)C(C)(C)C)C3(OS(=O)(=O)C=C3N)[C@H]2O[Si](C)(C)C(C)(C)C)c(=O)n(C)c1=O | IIIB |  | p24 |  | 0.046 µM
CCCCCCCCCCCCCCCCCCOC1OC(COS(=O)(=O)O)C(OC2OC(COS(=O)(=O)O)C(OC3OC(COS(=O)(=O)O)C(OC4OC(COS(=O)(=O)O)C(OC5OC(COS(=O)(=O)O)C(OC6OC(COS(=O)(=O)O)C(OS(=O)(=O)O)C(OS(=O)(=O)O)C6O)C(OS(=O)(=O)O)C5O)C(O)C4OS(=O)(=O)O)C(O)C3OS(=O)(=O)O)C(OS(=O)(=O)O)C2O)C(OS(=O)(=O)O)C1O | IIIB |  | cytopathic effect / MTT |  | 13.1 µg/mL
Nc1nccc2c1ncn2[C@@H]1O[C@H](CO)[C@@H](O)[C@H]1O | A012 POST-AZT |  | p24 |  | 0.165 µM
Cc1cn([C@@H]2O[C@H](CO[Si](C)(C)C(C)(C)C)C3(OS(=O)(=O)C=C3N)[C@H]2O[Si](C)(C)C(C)(C)C)c(=O)n(C)c1=O | IIIB |  | syncytia |  | 0.046 µg/mL
Cc1cn([C@H]2C[C@H](N=[N+]=[N-])[C@@H](CO)O2)c(=O)[nH]c1=O | IIIB/LAI |  | p24 |  | 0.004 µM
CC(C)=CCN1Cc2cccc3[nH]c(=S)n(c23)C[C@@H]1C | D34 |  | syncytia |  | 0.06 µM
Nc1ncnc2c1ncn2C[C@@H](CO)OCP(=O)(O)O | IIIB |  |  |  | >20 µM
O=Nc1ccc2oc(=O)ccc2c1 | LAV |  | ELISA |  | <1 µM
CC(C)C[C@H](NC(=O)[C@H](Cc1ccccc1)NC(=O)CNC(=O)CNC(=O)[C@@H](N)Cc1ccc(O)cc1)C(=O)N[C@@H]1O[C@H](CO)[C@@H](O)[C@H](O)[C@H]1O |  |  | syncytia / RT activity |  | >140 µM
Cc1cn([C@H]2C[C@H](N=[N+]=[N-])[C@@H](CO)O2)c(=O)[nH]c1=O | D34 |  |  |  | 0.006 µM
C[C@@H](Cn1cnc2c(N)ncnc21)OCP(=O)(O)O | IIIB |  | p24 / syncytia |  | >20 µM
Cc1cn([C@H]2C[C@H](N=[N+]=[N-])[C@@H](CO)O2)c(=O)[nH]c1=O | CLADE C |  | p24 |  | 0.02 µM
Nc1ccn([C@H]2CC[C@@H](CO)O2)c(=O)n1 | IIIB |  | RT activity |  | 0.23 µM

The last 4 rows once more:

structure,strain or isolate,changes,method,setting,result
Cc1cn([C@H]2C[C@H](N=[N+]=[N-])[C@@H](CO)O2)c(=O)[nH]c1=O,D34,,,,0.006 µM
C[C@@H](Cn1cnc2c(N)ncnc21)OCP(=O)(O)O,IIIB,,p24 / syncytia,,>20 µM
Cc1cn([C@H]2C[C@H](N=[N+]=[N-])[C@@H](CO)O2)c(=O)[nH]c1=O,CLADE C,,p24,,0.02 µM
Nc1ccn([C@H]2CC[C@@H](CO)O2)c(=O)n1,IIIB,,RT activity,,0.23 µM